Reference: PMC12750888, “Design, synthesis, and anti-Toxoplasma gondii evaluation of β-carboline derivatives” (Parasites & Vectors, 2025)

Test system: T. gondii RH strain tachyzoites
Experiment: In vitro anti-proliferation assay (qPCR of 529-bp repeat)
Assay type: cell-based, Toxoplasma gondii
Details: compared with 9-methyl-harmine (SI = 17.2)
Protocol: The antiproliferative effects of NBZ023 and NBZ035 on T. gondii were determined via qPCR, which was performed by using a QuantStudio 3 Flex real-time PCR system (Life Technologies). Cells were infected with tachyzoites (2 × 10^5 per well) for 6 h, then treated with NBZ023, NBZ035 (0.24‒30 μM) or pyrimethamine (0.4 μM) for 24 h, and washed twice with PBS. Infected or uninfected cells that were cultured with DMEM (1% FBS) were used as the parasite or the host cell control group, respectively. Total genomic DNA from the cell samples was isolated with the DNAiso reagent (Takara), and the levels of the 529-bp repeat sequence of T. gondii were measured via qPCR as before.

## O=C(Nc1ccccc1)c1ccc2[nH]c3c(C(=O)c4cccc(Br)c4)nccc3c2c1 [NBZ023]
  SI greater than that of 9-methyl-harmine: 18 fold

## O=C(Nc1ccccc1)c1ccc2[nH]c3c4[n+](ccc3c2c1)-c1ccccc1C4=O [NBZ035]
  SI greater than that of 9-methyl-harmine: threefold
